Patent publication US11254706B2 (Inno Bio-Drug Development Limited, priority 2015, dated 2022)
Ends that are not written are not given here.

Test: general procedure: Fmoc solid-phase peptide synthesis; D or Q residue preloaded Wang resin (0.79 mmol/g load); PyBOP, 0.4 M N-methylmorpholine in DMF
Details: whole synthesis; for final HPLC purity: UV 220 nm

Row | Substance | isolated yield [%] | final HPLC purity [%]
1 | DEAQETAVSSHEQ-OH | 29 | >95
2 | DEAQETAVSSHEQD-OH | 28 | >95
